In patent US20220033460A1, “IDENTIFICATION AND USE OF T CELL EPITOPES IN DESIGNING DIAGNOSTIC AND THERAPEUTIC APPROACHES FOR COVID-19” (priority 2020, published 2022):

Tested on: CD8+ T cells
Format: cell-based, human
Details: cells of the TCR clonotype specific for the epitope / HLA class I of the same line

Row | Molecule | No. of Cells
1 | TCR_48: TCR to … / A*24:02 (protein) TCR alpha: SLAKTTQPISMDSYEGQEVNITCSHNNIATNDYITWYQQFPSQGPRFIIQGYKTKVTNEVASLFIPADRKSSTLSLPRVSLSDTAVYYCLVGGWVSGGSYIPTFGRGTSLIVHPYIQNPDPAVYQLRDSKSSDKSVCLFTDFDSQTNVSQSKDSDVYITDKTVLDMRSMDFKSNSAVAWSNKSDFACANAFNNSIIPEDTFFPSPESSCDVKLVEKSFETDTNLNFQNLSVIGFRILLLKVAGFNLLMTLRLWSS TCR beta: EPEVTQTPSHQVTQMGQEVILRCVPISNHLYFYWYRQILGQKVEFLVSFYNNEISEKSEIFDDQFSVERPDGSNFTLKIRSTKLEDSAMYFCASKTGGAAKNIQYFGAGTRLSVLEDLKNVFPPKVAVFEPSEAEISHTQKATLVCLATGFYPDHVELSWWVNGKEVHSGVSTDPQPLKEQPALNDSRYCLSSRLRVSATFWQNPRNHFRCQVQFYGLSENDEWTQDRAKPVTQIVSAEAWGRADCGFTSESYQQGVLSATILYEILLGKATLYAVLVSALVLMAMVKRKDSRG | 3
2 | TCR_44: TCR to … / A*24:02 (protein) TCR alpha: AQKVTQAQTEISVVEKEDVTLDCVYETRDTTYYLFWYKQPPSGELVFLIRRNSFDEQNEISGRYSWNFQKSTSSFNFTITASQVVDSAVYFCALSVRIQGAQKLVFGQGTRLTINPNIQNPDPAVYQLRDSKSSDKSVCLFTDFDSQTNVSQSKDSDVYITDKTVLDMRSMDFKSNSAVAWSNKSDFACANAFNNSIIPEDTFFPSPESSCDVKLVEKSFETDTNLNFQNLSVIGFRILLLKVAGFNLLMTLRLWSS TCR beta: AAGVIQSPRHLIKEKRETATLKCYPIPRHDTVYWYQQGPGQDPQFLISFYEKMQSDKGSIPDRFSAQQFSDYHSELNMSSLELGDSALYFCASSLYEDRANWEQYFGPGTRLTVTEDLKNVFPPKVAVFEPSEAEISHTQKATLVCLATGFYPDHVELSWWVNGKEVHSGVSTDPQPLKEQPALNDSRYCLSSRLRVSATFWQNPRNHFRCQVQFYGLSENDEWTQDRAKPVTQIVSAEAWGRADCGFTSESYQQGVLSATILYEILLGKATLYAVLVSALVLMAMVKRKDSRG | 3
3 | TCR_41: TCR to … / A*01:01 (protein) TCR alpha: GESVGLHLPTLSVQEGDNSIINCAYSNSASDYFIWYKQESGKGPQFIIDIRSNMDKRQGQRVTVLLNKTVKHLSLQIAATQPGDSAVYFCAASTGGQKLLFARGTMLKVDLNIQNPDPAVYQLRDSKSSDKSVCLFTDFDSQTNVSQSKDSDVYITDKTVLDMRSMDFKSNSAVAWSNKSDFACANAFNNSIIPEDTFFPSPESSCDVKLVEKSFETDTNLNFQNLSVIGFRILLLKVAGFNLLMTLRLWSS TCR beta: MGPGLLCWVLLCLLGAGSVETGVTQSPTHLIKTRGQQVTLRCSSQSGHNTVSWYQQALGQGPQFIFQYYREEENGRGNFPPRFSGLQFPNYSSELNVNALELDDSALYLCASSDLAQYLNTGELFFGEGSRLTVLEDLKNVFPPKVAVFEPSEAEISHTQKATLVCLATGFYPDHVELSWWVNGKEVHSGVSTDPQPLKEQPALNDSRYCLSSRLRVSATFWQNPRNHFRCQVQFYGLSENDEWTQDRAKPVTQIVSAEAWGRADCGFTSESYQQGVLSATILYEILLGKATLYAVLVSALVLMAMVKRKDSRG | 3
4 | TCR_42: TCR to … / B*07:02 (protein) TCR alpha: RKEVEQDPGPFNVPEGATVAFNCTYSNSASQSFFWYRQDCRKEPKLLMSVYSSGNEDGRFTAQLNRASQYISLLIRDSKLSDSATYLCVVNKDNDMRFGAGTRLTVKPNIQNPDPAVYQLRDSKSSDKSVCLFTDFDSQTNVSQSKDSDVYITDKTVLDMRSMDFKSNSAVAWSNKSDFACANAFNNSIIPEDTFFPSPESSCDVKLVEKSFETDTNLNFQNLSVIGFRILLLKVAGFNLLMTLRLWSS TCR beta: NAGVTQTPKFRVLKTGQSMTLLCAQDMNHEYMYWYRQDPGMGLRLIHYSVGEGTTAKGEVPDGYNVSRLKKQNFLLGLESAAPSQTSVYFCASQDINTGELFFGEGSRLTVLEDLKNVFPPKVAVFEPSEAEISHTQKATLVCLATGFYPDHVELSWWVNGKEVHSGVSTDPQPLKEQPALNDSRYCLSSRLRVSATFWQNPRNHFRCQVQFYGLSENDEWTQDRAKPVTQIVSAEAWGRADCGFTSESYQQGVLSATILYEILLGKATLYAVLVSALVLMAMVKRKDSRG | 3
5 | TCR_43: TCR to … / A*02:01 (protein) TCR alpha: QKEVEQNSGPLSVPEGAIASLNCTYSDRGSQSFFWYRQYSGKSPELIMFIYSNGDKEDGRFTAQLNKASQYVSLLIRDSQPSDSATYLCAAGRDDKIIFGKGTRLHILPNIQNPDPAVYQLRDSKSSDKSVCLFTDFDSQTNVSQSKDSDVYITDKTVLDMRSMDFKSNSAVAWSNKSDFACANAFNNSIIPEDTFFPSPESSCDVKLVEKSFETDTNLNFQNLSVIGFRILLLKVAGFNLLMTLRLWSS TCR beta: NAGVTQTPKFRVLKTGQSMTLLCAQDMNHEYMYWYRQDPGMGLRLIHYSVGEGTTAKGEVPDGYNVSRLKKQNFLLGLESAAPSQTSVYFCASSSMTSGIRYEQYFGPGTRLTVTEDLKNVFPPKVAVFEPSEAEISHTQKATLVCLATGFYPDHVELSWWVNGKEVHSGVSTDPQPLKEQPALNDSRYCLSSRLRVSATFWQNPRNHFRCQVQFYGLSENDEWTQDRAKPVTQIVSAEAWGRADCGFTSESYQQGVLSATILYEILLGKATLYAVLVSALVLMAMVKRKDSRG | 3
6 | TCR_47: TCR to … / A*02:01 (protein) TCR alpha: RKEVEQDPGPFNVPEGATVAFNCTYSNSASQSFFWYRQDCRKEPKLLMSVYSSGNEDGRFTAQLNRASQYISLLIRDSKLSDSATYLCVVNSGNTPLVFGKGTRLSVIANIQNPDPAVYQLRDSKSSDKSVCLFTDFDSQTNVSQSKDSDVYITDKTVLDMRSMDFKSNSAVAWSNKSDFACANAFNNSIIPEDTFFPSPESSCDVKLVEKSFETDTNLNFQNLSVIGFRILLLKVAGFNLLMTLRLWSS TCR beta: NAGVTQTPKFQVLKTGQSMTLQCAQDMNHNSMYWYRQDPGMGLRLIYYSASEGTTDKGEVPNGYNVSRLNKREFSLRLESAAPSQTSVYFCASSYLYRVAGELFFGEGSRLTVLEDLKNVFPPKVAVFEPSEAEISHTQKATLVCLATGFYPDHVELSWWVNGKEVHSGVSTDPQPLKEQPALNDSRYCLSSRLRVSATFWQNPRNHFRCQVQFYGLSENDEWTQDRAKPVTQIVSAEAWGRADCGFTSESYQQGVLSATILYEILLGKATLYAVLVSALVLMAMVKRKDSRG | 3
